Molecular target: ngε_1/ngζ_1 (Neisseria gonorrhoeae, UniProt D5K9G7)
Experiment: X-ray crystal structure (soak), […] Å
Conditions: active site of ngζ_1; 20 mM soak, 100 mM sodium citrate pH 4.5

By UniProt entry, the sequences of proteins in these tests, tags left out. Where a name states a change or a piece, a line headed by the entry shows the natural chain unless it says otherwise.
UniProt D5K9G7: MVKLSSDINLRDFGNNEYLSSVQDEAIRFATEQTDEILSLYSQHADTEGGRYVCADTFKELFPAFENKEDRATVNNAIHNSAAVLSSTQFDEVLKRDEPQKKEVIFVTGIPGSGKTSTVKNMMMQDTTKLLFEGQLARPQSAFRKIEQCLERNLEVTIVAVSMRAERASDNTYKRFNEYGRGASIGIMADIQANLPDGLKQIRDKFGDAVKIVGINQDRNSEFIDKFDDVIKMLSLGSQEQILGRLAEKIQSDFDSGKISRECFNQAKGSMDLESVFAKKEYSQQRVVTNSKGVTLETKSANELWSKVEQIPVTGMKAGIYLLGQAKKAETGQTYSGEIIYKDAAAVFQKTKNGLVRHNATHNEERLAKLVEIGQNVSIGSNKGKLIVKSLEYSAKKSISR

CC(=O)N[C@H]1[C@@H](OP(=O)(O)OP(=O)(O)OC[C@H]2O[C@@H](n3ccc(=O)[nH]c3=O)[C@H](O)[C@@H]2O)O[C@H](CO)[C@@H](O)[C@@H]1O[C@H](C)C(=O)O
X-ray crystal structure (soak), 2.7 Å: we soaked UNAM into crystals and determined the structure of the complex

Reference: article PMC5923241, “The ng_ζ1 toxin of the gonococcal epsilon/zeta toxin/antitoxin system drains precursors for cell wall synthesis” (Nature Communications, 2018)
